Measured values from several laboratories, pooled; numbers as filed in NIAID ChemDB.

All rows: growth or infection tests; organism: Hepatitis B virus; read by: PCR; measure: EC50

Blank or dashed fields: not listed here. Two numbers with a dash give a range or band. Conditions beyond the fields shown may differ between rows. ECn: concentration that inhibits the pathogen or its effect by n%.

compound,strain or isolate,conditions,cells,value
Cn1nc2cc(NS(=O)(=O)c3cnn(-c4nccc(N)n4)c3)ccc2c1C(=O)Nc1ccc(F)c(Cl)c1,,,HepAD38,100–1000 µM
C=C[C@@H](NC(=O)C(=O)c1c(C)c(C(=O)Nc2ccc(F)c(C#N)c2)n(C)c1C)C(F)(F)F,,,HepG2.2.15,<0.001 µM
C[C@@H]1Cn2c(c(C(=O)N[C@H](C)c3ccccc3)n(-c3ccc(OC4CC4)cc3)c2=O)CN1C(=O)c1ccc(Br)c(Cl)c1,,,HepG2.117,0.5–5 µM
CNC(=O)c1ccc(-n2c(=O)c3c(n4ncc(Nc5ccc(F)cc5)c24)CN(C(=O)c2ccc(Br)c(Cl)c2)CC3)cc1,,3 d,HepG2.117,<0.1 µM
Cn1nc2cc(NS(=O)(=O)NCc3cccc(NC(=O)OC(C)(C)C)n3)ccc2c1C(=O)Nc1ccc(F)c(Cl)c1,,,HepAD38,100–1000 µM
Cc1cc(NC(=O)c2c3c(cn2C)S(=O)(=O)N[C@H]2CN(C(=O)C(=O)N4CC(F)(F)C4)C[C@H]2CO3)ccc1F,,,HepAD38,<0.5 µM
COC(=O)C1=C(CN2CC(F)(F)[C@@H]3[C@H]2CON3C[C@H](O)C(C)(C)C(=O)O)NC(c2nccs2)=N[C@H]1c1cccc(F)c1Cl,,,HepG2.2.15,0.1295 µM
Cn1nc2cc(NS(=O)(=O)C3CC3)ccc2c1C(=O)Nc1ccc(F)c(Cl)c1,,,HepAD38,100–1000 µM
NC(=O)c1ccc(-n2c(=O)c3c(n4ncc(NCc5ccccc5)c24)CN(C(=O)c2ccc(Br)c(Cl)c2)CC3)cc1,,3 d,HepG2.117,<0.1 µM
CN(C)C(=O)C(=O)N1CC2COc3c(cn(C)c3C(=O)Nc3cc(F)c(F)c(F)c3)S(=O)(=O)NC2C1,,,HepG2,<0.5 µM
CCOC(=O)C1=C(CN2CC(F)(F)[C@@H]3[C@H]2CON3C[C@H](OC)C(C)(C)C(=O)O)NC(c2nccs2)=N[C@H]1c1cccc(F)c1Cl,,,HepG2.2.15,0.005 µM
C[C@@H](NC(=O)c1c2n(c(=O)n1C1CC1)CCN(C(=O)c1ccc(Br)c(Cl)c1)C2)c1ccccc1,,,HepG2.117,0.5–5 µM
COc1cccc(-n2c(=O)c3c(n4ncc(NCc5ccccc5)c24)CN(C(=O)c2ccc(Br)c(Cl)c2)CC3)c1,,3 d,HepG2.117,0.1–0.5 µM
Cc1c(C(=O)C(=O)NC(C)(C)c2ccc(F)cn2)c(C)n(C)c1C(=O)Nc1ccc(F)c(C(F)(F)F)c1,,,HepG2.2.15,0.001–0.0099 µM
CNC(=O)c1ccc(-n2c(=O)c3c(n4ncc(NCc5ccc(OC(F)(F)F)cc5)c24)CN(C(=O)c2ccc(Cl)c(Cl)c2)CC3)cc1,,3 d,HepG2.117,0.1–0.5 µM
CCOC(=O)C1=C(CN2CC(F)(F)[C@H]3[C@@H]2CCN3C[C@](C)(F)C(=O)O)NC(c2nccs2)=N[C@H]1c1cccc(F)c1C,,,HepG2.2.15,0.0495 µM
C#C[C@H](NC(=O)C(=O)c1c(C)c(C(=O)Nc2ccc(F)c(C#N)c2)n(C)c1C)C1COC1,,,HepG2.2.15,<0.001 µM
Cc1cc(NC(=O)c2c3c(cn2C)S(=O)(=O)N[C@H]2CN(C(=O)C(=O)N[C@H](C)C(F)(F)F)C[C@H]2CS3)ccc1F,,,HepAD38,<0.5 µM
CNC(=O)c1ccc(-n2c(=O)c3c(n4ncc(Cc5ccc(OC)cc5)c24)CN(C(=O)c2ccc(Br)c(C#N)c2)CC3)cc1,,3 d,HepG2.117,<0.1 µM
COc1ccc(CNC(=O)c2c3n(c(=O)n2-c2ccc(OCC(F)(F)F)cc2)CCN(C(=O)c2ccc(Br)c(Cl)c2)C3)c(C)c1,,,HepG2.117,0.1–0.5 µM
O=C(c1ccc(Br)c(Cl)c1)N1CCc2c(n3ncc(Cc4ccccc4)c3n(-c3ccc(-c4ncc[nH]4)cc3)c2=O)C1,,3 d,HepG2.117,0.5–5 µM
Cc1cc(NC(=O)c2c3c(cn2C)S(=O)(=O)N[C@H]2CN(C(=O)C(=O)N[C@H](C)C(F)(F)F)C[C@H]2CO3)ccc1F,Genotype D,,HepG2,0.00094 µM
CNS(=O)(=O)c1ccc2c(C(=O)Nc3ccc(F)c(Cl)c3)n(C)nc2c1,,,HepAD38,100–1000 µM
CCOC(=O)C1=C(CN2CC(F)(F)[C@@H]3[C@H]2CON3[C@H](C)[C@H](O)C(C)(C)C(=O)O)NC(c2nccs2)=N[C@H]1c1cccc(F)c1C,,,HepG2.2.15,0.011 µM
Cc1cc(NC(=O)c2c3c(cn2C)S(=O)(=O)N[C@H]2CN(C(=O)C(=O)NC(C)C)C[C@H]2CO3)ccc1F,,,HepAD38,<0.5 µM
C[C@@H]1Cn2c(c(C(=O)NCc3ccccc3-n3cccn3)n(-c3ccc(OC4CC4)cc3)c2=O)CN1C(=O)c1ccc(Br)c(Cl)c1,,,HepG2.117,0.1–0.5 µM
Cn1nc2cc(NS(=O)(=O)C3CC3)cc(F)c2c1C(=O)Nc1ccc(F)c(Cl)c1,,,HepAD38,>1000 µM
CCOC(=O)C1=C(CN2CC(F)(F)[C@H]3[C@@H]2CCN3C[C@@H](F)C(C)(C)C(=O)O)NC(c2nc(C)cs2)=N[C@H]1c1ccc(F)c(F)c1F,,,HepG2.2.15,0.003 µM
C=C[C@@](C)(CO)NC(=O)C(=O)c1c(C)c(C(=O)Nc2ccc(F)c(C#N)c2)n(C)c1C,,,HepG2.2.15,0.001–0.0099 µM
COc1ccc(CN2C[C@@H](O)Cn3c(c4n(c3=O)CCN(C(=O)c3ccc(Br)c(Cl)c3)C4)C2=O)cc1,,,HepG2.117,0.1–0.5 µM
Cc1cc(NC(=O)c2c3c(cn2C)S(=O)(=O)N[C@H]2CN(C(=O)C(=O)NC4(C)COC4)C[C@H]2CS3)ccc1F,,,HepAD38,<0.5 µM
COC(=O)C1=C(CN2CC(F)(F)[C@@H]3[C@H]2CON3C[C@@](C)(O)C(C)(C)C(=O)O)NC(c2nccs2)=N[C@H]1c1ccc(F)c(F)c1C,,,HepG2.2.15,0.011 µM
CN(C1CC1)S(=O)(=O)Nc1ccc2c(C(=O)Nc3ccc(F)c(Cl)c3)n(C)nc2c1,,,HepAD38,100–1000 µM
Cc1c(C(=O)C(=O)NC(C)(C)c2ccc(F)cn2)c(C)n(C)c1C(=O)Nc1ccc(F)c(C#N)c1,,,HepG2.2.15,0.001–0.0099 µM
CCOC(=O)C1=C(CN2CC(F)(F)[C@H]3[C@@H]2CCN3CC(F)(F)C(C)(C)C(=O)O)NC(c2nccs2)=N[C@H]1c1cccc(F)c1C,,,HepG2.2.15,0.0085 µM
C#CC1(NC(=O)C(=O)c2c(C)c(C(=O)Nc3ccc(F)c(C#N)c3)n(C)c2C)CCS(=O)(=O)CC1,,,HepG2.2.15,0.001–0.0099 µM
Cn1nc2cc(S(=O)(=O)NCC3CNC3)ccc2c1C(=O)Nc1ccc(F)c(Cl)c1,,,HepAD38,>1000 µM
C#CC1(NC(=O)C(=O)c2c(C)c(C(=O)Nc3ccc(F)c(C#N)c3)n(C)c2C)COC1,,,HepG2.2.15,<0.001 µM
NS(=O)(=O)c1ccc(-n2c(C(=O)NCc3ccccc3)c3n(c2=O)CCN(C(=O)c2ccc(Br)c(Cl)c2)C3)cc1,,,HepG2.117,>5 µM
Cn1nc2cc(NS(=O)(=O)C3CC3)ncc2c1C(=O)Nc1ccc(F)c(Cl)c1,,,HepAD38,>1000 µM
C[C@@H](c1ccccc1)N1C[C@@H](O)Cn2c(c3n(c2=O)CCN(C(=O)c2ccc(Br)c(Cl)c2)C3)C1=O,,,HepG2.117,0.5–5 µM
Cc1c(C(=O)C(=O)NC(C)(C)c2cnn(C)c2)c(C)n(C)c1C(=O)Nc1ccc(F)c(C#N)c1,,,HepG2.2.15,0.001–0.0099 µM
CCOC(=O)C1=C(CN2CC(F)(F)[C@@H]3[C@H]2CON3C[C@@H](F)C(C)(C)C(=O)O)NC(c2nccs2)=N[C@H]1c1ccc(F)c(F)c1F,,,HepG2.2.15,0.012 µM

6 of the rows above, restated:

Cc1cc(NC(=O)c2c3c(cn2C)S(=O)(=O)N[C@H]2CN(C(=O)C(=O)N4CC(F)(F)C4)C[C@H]2CO3)ccc1F ; cells: HepAD38 ; value: <0.5 µM
CCOC(=O)C1=C(CN2CC(F)(F)[C@H]3[C@@H]2CCN3CC(F)(F)C(C)(C)C(=O)O)NC(c2nccs2)=N[C@H]1c1cccc(F)c1C ; cells: HepG2.2.15 ; value: 0.0085 µM
Cn1nc2cc(NS(=O)(=O)C3CC3)ccc2c1C(=O)Nc1ccc(F)c(Cl)c1 ; cells: HepAD38 ; value: 100–1000 µM
COc1cccc(-n2c(=O)c3c(n4ncc(NCc5ccccc5)c24)CN(C(=O)c2ccc(Br)c(Cl)c2)CC3)c1 ; conditions: 3 d ; cells: HepG2.117 ; value: 0.1–0.5 µM
C=C[C@@H](NC(=O)C(=O)c1c(C)c(C(=O)Nc2ccc(F)c(C#N)c2)n(C)c1C)C(F)(F)F ; cells: HepG2.2.15 ; value: <0.001 µM
C[C@@H]1Cn2c(c(C(=O)NCc3ccccc3-n3cccn3)n(-c3ccc(OC4CC4)cc3)c2=O)CN1C(=O)c1ccc(Br)c(Cl)c1 ; cells: HepG2.117 ; value: 0.1–0.5 µM